From patent publication US9115079B2, “NDM inhibitor” (priority 2011, dated 2015)

Protein sequences, listed by entry. Tags and fused reporters are not part of them. Chains listed by the source or under a name are the forms on record and can include a tag or linker. Residues count along the entry.
UniProt C7C422, 29-270 with tags or gaps limits assumed: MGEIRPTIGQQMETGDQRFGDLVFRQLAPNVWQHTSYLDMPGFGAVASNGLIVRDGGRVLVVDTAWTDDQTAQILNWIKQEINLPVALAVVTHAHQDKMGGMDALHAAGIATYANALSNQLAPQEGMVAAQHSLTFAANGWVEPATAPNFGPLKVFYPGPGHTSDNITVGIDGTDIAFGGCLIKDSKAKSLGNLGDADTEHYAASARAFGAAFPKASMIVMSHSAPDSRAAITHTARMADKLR

Target: NDM-1 (Klebsiella pneumoniae, UniProt C7C422)
Details: NDM-1 2.5 nM, 100 μM imipenem as substrate, 100 μM ZnSO4, pH 7.5, 30° C.; tested form: disodium salt

| Compound | IC50 |
| --- | --- |
| CC(C)/C(C(=O)O)=C(/C(=O)O)[C@H]1CC[C@H](O)CC1 | 30 to 100 µM |
| NCCOc1ccc(C/C(C(=O)O)=C(/C(=O)O)[C@H]2CC[C@@H](O)CC2)cc1 | < 10 µM |
